Measured values taken from ChEMBL document CHEMBL4823308, “Optimization of Triarylpyridinone Inhibitors of the Main Protease of SARS-CoV-2 to Low-Nanomolar Antiviral Potency” (ACS Med Chem Lett, 2021).

Test system: SARS-CoV-2
Experiment: microbe, parasite or virus in culture
Conditions: Severe acute respiratory syndrome coronavirus 2, 16HBE14o-, 24 h

Structure (SMILES)	EC50
Cn1cc(-c2cc(-c3cc(Cl)cc(OCc4scnc4C(F)(F)F)c3)c(=O)n(-c3cccnc3)c2)c(=O)[nH]c1=O	1080 nM
Cn1cc(-c2cc(-c3cc(Cl)cc(OCCC(F)(F)F)c3)c(=O)n(-c3cccnc3)c2)c(=O)[nH]c1=O	820 nM
